Experimental findings from US8877738B2, “Antipathogenic peptides” (priority 2009, dated 2014) are described below.

One series in a line: in vitro. The settings on record: human, 293TT cells. Here is the method:
The 293TT cell line derived from human embryonal kidney cells transformed with the SV40 large T antigen was cultured in Dulbecco's modified Eagle's medium (DMEM) (Gibco/BRL, Gaithersburg, Md., USA) supplemented with heat-inactivated 10% bovine serum (Gibco/BRL), Glutamax-I (Invitrogen, Carlsbad, Calif., USA) and nonessential aminoacids. This cell line allows high levels of protein to be expressed from vectors containing the SV40 origin due to overreplication of the expression plasmid (Buck et al., 2004).
Cells were seeded at a density of 5×10^4/well in 24-well plates; the next day they were treated with serially diluted peptides to generate dose-response curves. Forty-eight or 72 h after treatment, cell viability was determined by the 3-(4,5-dimethylthiazol-2-yl)-2,5-diphenyltetrazolium bromide (MTT) method; 50% cytotoxic concentration (CC50) values were determined using Prism.

A further series has as its system HIV-1IIIb. To be noted: C8166 cells, day 7 post-infection. The source says:
FIG. 8: Quantitative real time RT-PCR analysis of HIV-1 RNA load in HIV-1 infected C8166 cell culture supernatants at day 7 post infection. […] The data are reported as means±SD of three independent experiments performed in duplicate.
FIG. 9: ELISA HIV-1 p24 protein analysis in HIV-1 infected C8166 cell culture supernatants at day 7 post infection. […] The data are reported as means±SD of three independent experiments performed in duplicate.
HIV-1 RNA viral load and HIV-1 gag p24 content were determined at day 7 post-infection in the culture supernatants in three independent experiments performed in duplicate. HIV-1 RNA was extracted by Roche high pure viral nucleic acid kit (Roche, Mannheim, Germany) from 200 μl of culture supernatants and then RNA load was assessed by quantitative real time RT-PCR as previously described (Gibellini et al., 2004). In parallel, HIV-1 gag p24 protein amount was determined by ELISA HIV-1 p24 antigen kit (Biomerieux Marcy L'Etoile, France).

Another series concerns C8166 cells. To be noted: uninfected C8166 cells, Trypan blue exclusion, day 7.

Take `CC[C@H](C)[C@H](NC(=O)[C@H](CCCNC(=N)N)NC(=O)[C@@H](NC(=O)[C@H](CCCNC(=N)N)NC(=O)[C@H](CC(C)C)NC(=O)[C@H](CO)NC(=O)[C@H](C)N)C(C)C)C(=O)N[C@@H](CCCCN)C(=O)N[C@@H](CCCCN)C(=O)NCCCC[C@H](NC(=O)[C@H](CCCCN)NC(=O)[C@H](CCCCN)NC(=O)[C@@H](NC(=O)[C@H](CCCNC(=N)N)NC(=O)[C@@H](NC(=O)[C@H](CCCNC(=N)N)NC(=O)[C@H](CC(C)C)NC(=O)[C@H](CO)NC(=O)[C@H](C)N)C(C)C)[C@@H](C)CC)C(=O)NCCCC[C@H](NC(=O)[C@H](CCCCNC(=O)[C@H](CCCCN)NC(=O)[C@H](CCCCN)NC(=O)[C@@H](NC(=O)[C@H](CCCNC(=N)N)NC(=O)[C@@H](NC(=O)[C@H](CCCNC(=N)N)NC(=O)[C@H](CC(C)C)NC(=O)[C@H](CO)NC(=O)[C@H](C)N)C(C)C)[C@@H](C)CC)NC(=O)[C@H](CCCCN)NC(=O)[C@H](CCCCN)NC(=O)[C@@H](NC(=O)[C@H](CCCNC(=N)N)NC(=O)[C@@H](NC(=O)[C@H](CCCNC(=N)N)NC(=O)[C@H](CC(C)C)NC(=O)[C@H](CO)NC(=O)[C@H](C)N)C(C)C)[C@@H](C)CC)C(=O)NCCC(N)=O` [SB105-A10, (ASLRVRIKK)4-Lys2-Lys-β-Ala]: the CC50 – broadly, the concentration that lowers cell viability or growth by half – in “in vitro” is more than 100 µg/mL. The “50% inhibition of HIV-1IIIb replication (IC50)” value in the series on HIV-1IIIb was determined as 2.5 µg/mL. For the same compound, the “cell survival (C8166 cell viability)” value in the series with C8166 cells was “did not significantly affect”.
